Here are results for two sequences from article PMC2858704.

The series addresses T1, PefR (Gbs1402) (Streptococcus agalactiae NEM316) (UniProt Q8E4J9).
T1 sequence (looked up): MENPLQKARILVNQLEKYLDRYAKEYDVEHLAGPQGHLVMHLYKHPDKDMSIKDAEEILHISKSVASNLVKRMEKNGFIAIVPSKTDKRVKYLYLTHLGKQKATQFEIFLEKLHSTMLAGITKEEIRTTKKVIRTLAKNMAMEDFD
Nature of the series: EMSA. The settings on record: 30 pmol PefR, 2 pmol DNA, EMSA: 5% glycerol, 20 mM Tris-HCl pH 8, 50 mM KCl, 0.2 mM MgCl2, 1 mM EDTA, 0.2 mM DTT, 0.3 uM BSA, 15 ul, 37 C 20 min, 8% PAGE in 1x TBE, ethidium bromide stain, recombinant protein, residues 1-146, probe letters rebuilt from the primers and the genome.

Construct, isoform or probe ends are uncertain for at least one entry. The comparison behind a weaker result is the experiment's own reference, which may not be listed here. Where a protein sequence is shown, tags need not be part of it.

On to “ATTTGTATTTTACTATCATTTACATTAAAAATCAATATAAATTTATAATTAAAAATATAAAAAGCGAACATATATTTTTAATATTAAAAAGTAAGCGAAATCATTTTTTATTTGACGAATGATAGGTTTTTTTTAGAAATATTAATGTAAAAATAGTTCTCACGGTAACTTTTAATTGACAATTAATAAAGGTTGTTTTAAAATAGTTCTCACGATAACTATTAAAGGAGTATTATTATGGAGAATC (double strand) [pefRCD promoter fragment (248 bp)]”, for which the binding result is given as “binds more weakly” (PPIX, 120 pmol or 240 pmol (panel sides)) and “binds more weakly” (heme, increasing ratios).

Take “GCGTAGAAGTCATTAAATGGAGAACGCTTTATTAGGAAAAATAGTGGGGAGATATTTTAGAAAAAGGAAATAATGATGTTTTGAAAAAAATAGTTTCTATGAGAATCTTTTTCTTGACAATAAAATTTAGCTATTATAAAATAGTTCTCACGATAACTAAAATAATGATTTTTTCAGAAAATAATATTATTTATTGATTAAAAAATCAAAAAATAACCTTATAAGACCTATTTGTTATTCTTAAAAGATATTAGTTAAAATCAGAAATAGAGATTGGAGATA (double strand) [pefAB promoter fragment (281 bp)]”: the binding result (PPIX, 240 pmol or 120 pmol (panel sides)) was “binds more weakly” and the binding result (heme, increasing ratios) is recorded as “binds more weakly”.
